Source: patent US20220322671A1, “METHODS TO REDUCE CONTAMINATION, BIOFILM AND FOULING FROM WATER SYSTEMS, SURFACES, AND PRODUCTS” (Aequor, Inc., priority 2019, published 2022)

Tests used:
E. coli ATCC 11775 = assay: MIC broth microdilution, E. coli; type: cell-based
P. aeruginosa NR-31041 = assay: MIC broth microdilution, P. aeruginosa; type: cell-based, Pseudomonas aeruginosa

| Compound | Minimum Inhibitory Concentration (MIC) M07-09 Method, EC (E. coli ATCC 11775) | Minimum Inhibitory Concentration (MIC) M07-09 Method, PA (P. aeruginosa NR-31041) |
| --- | --- | --- |
| CCOP(=O)(OCC)C(F)(F)Br | 0.100 % v/v | 0.100 % v/v |
| Bis(2,2,2-trifluoroethyl) phosphite | 0.500 % v/v | – |
